Source: the supplement of paper PMC9931576
Where a chain is given by its changes, count along the chain named. Human monoclonal antibodies against the spike receptor-binding domain (heavy:light variable regions). IC50 against pseudoviruses bearing the spike of naturally observed variants; lower = stronger; >10 µg/ml means not reached at the top dose. No active / inactive call. The stated detection limit is 0.0005 µg/ml; values near or below 0.001 µg/ml lie at the floor of the assay.

B1: BD56-029 (protein)
chain 1: QVQLVESGGGVVQPGRSLRLSCAASGFSFRSYGMHWVRQGPGKGLEWVAVIWFDGSGQYYADSVRGRFTISRDNSKNTLYLQMNSLAAEDTAVYFCAREKGYETSGYPFDAFDIWGQGTMVTVSS
chain 2: QSVLTQPPSVSGAPGQRVTISCTGSSSNIGAIYDVHWYQHLPGAAPKLLIYGNNNRPSGVPDRFSGSKSGTSASLAIAGLQAEDEADYYCQSYDSSLRGSVFGGGTRLTVL
B2: BD56-030 (protein)
chain 1: EVQLVESGGGVVRPGGSLRLSCAASGFTFADYGMNWVRQAPGKGLEWVSGIFWNGGSPAYADSVKGRFTISRDNAKNSLYLQMSSLRAEDTALYYCARGGDDSNAYLYYYYGMDVWGQGTTVTVSS
chain 2: EIVLTQSPGTLSFSPGERATLSCRTSQSVSSSFLAWYQQRPGQAPRLLIFSASNRATGIPDRFSGSGSGTDFTLTISRLEPEDFAVYYCQQYGSSPITFGQGTRLEIK
B3: BD56-032 (protein)
chain 1: QVQLQESGPGLVKPSQTLSLTCTVSGGSLNSGSYYWSWIRQPAGKGLEWIGRIYPTGDTNYNPSLKNRVTISLDRSKNQFSLKLTFVTAADTAVYYCARERNPTVFGVADDLPEVCWGQGTLVTVSS
chain 2: DIQMTQSPSSLSASVGDRVTITCQASQDIKNYLNWYQQKPGKAPKVLIYDASSLETGVPSRFSGSGSGTDFTLTISSLQPEDIATYFCQQYDNMVTFGGGTKVEI
B4: BD56-037 (protein)
chain 1: EVQLVESGGALVQPGGSLKLSCAASGFTFSGSPMHWVRQTSGKGLEWVGHIRIKANNYATAYTASVKGRFTISRDDSKNTAYLQMNSLKTGDTATYYCTTSTYYDSSGSEPNDYWGQGTLVTVSS
chain 2: DIQMTQSPSSLSASVGDRVTITCRASQGISNSLAWYQQKSGKAPTLLVYAASRLEVGVPSRFSGSGSGTDYTLTISSLQPDDFATYYCQQYSSTPRTFGGGTKVEI
B5: BD56-039 (protein)
chain 1: QVQLVESGGGVFQPGKSLRLSCAASEFSFSIYSMHWVRRAPGKGLEWVAQISYDGSSKSYADSVKGRFTISRDNSKNTLYLQMNSLRAEDTALYYCVRDLGYYNRSGHYHIERIDYWGQGTLVTVSS
chain 2: EIVMTQSPATLSVSPGERATLSCRASQSVGSNLAWYHQKPGQAPRLLIYDASTRATGIPARFSGSGSGTDFTLTISSLQSEDFALYYCQQYNNWPPITFGQGTRLEMK
B6: BD56-041 (protein)
chain 1: EVQLVESGGGLVKPGGSLRLSCAASGFTFSKAWMSWVRQVPGKGLEWVGRIKRKTDDGPTDYAAPVKGRFTISRDDSKNTLYLVMNSLKTEDTAVYYCTTDQGLTYYDVLTGQNGDYYYYGMDVWGQGTTVTVSS
chain 2: QSVLTQPPSVSAAPGQKVTISCSGSSSNIGNNSVSWYQQLPGTAPKLLIYDNNKRPSGIPDRFSGSKSGTSATLGITGLQTGDEADYYCGTWDSSLSAWVFGGGTKLTVL
B7: BD56-045 (protein)
chain 1: EVQLVESGGGLVEPGRSLRLTCAASGFTFDDYAMHWVRQVPGKGLEWVSGISWNGGIIGFADSVKGRFVISRDNAKNSLYLAMRSLRADDTALYYCTKDIQFHGESAFDSWGQGTQVTVSS
chain 2: SYVLTQTPSVSVAPGQTARITCGGNNIGSKSVHWYQQKPGQAPGLVVYDGTDRPSGIPERFSGSNSGNTATLTITRVEAGDEADYFCQVWDSNSDHYVFGTGTKVTVL
B8: BD56-057 (protein)
chain 1: QVQLVESGGGVVQPGRSLRLSCAASGFTLSSYDMHWVRQAPGKGLEWVALISSDGSDKFYADSVKGRFTISRDNSKNTLYLQMNSLRPEDMALYHCAKDTPADYSTSVVLDSWGQGTLVTVSS
chain 2: DILMTQSPSSLSASVGDRVTITCRARQNIRTFLNWYQVKPGKAPKLLIYAASSVPSGVPSRFSGSGSGTDFTLTISSLQPEDFATYYCQQSYSTPSITFGPGTRLEIK
B9: Ehling_mAb-64 (protein)
chain 1: EVQLVETGGGLIQPGGSLRLSCAASGFTVSSNYMSWVRQAPGKGLEWVSVIYSGGSTYYADSVKGRFTISRDNSKNTLYLQMNSLRAEDTAVYYCARDLHIYGMDVWGQGTTVTVSS
chain 2: DIQMTQSPSSVSASVGDRVTITCRASQGISSWLAWYQQKPGKAPKLLIYAASSLQSGVPSRFSGSGSGTDFTLTISSLQPEDFATYYCQQANSFPNFGGGTKVEIK
B10: BD56-063 (protein)
chain 1: EVQLVESGGGLVQPGGSLRLSCAASGFTFRTYDMHWVRQGTGKGLEWVSAIGTAGDTYYPDSVKGRFTISRENAKNSLYLQMNSLRAGDTAVYYCARGVSLTGYYNPGDYYYYMDVWGKGTMVTVSS
chain 2: DIQMTQSPSSLSASVGDRVTITCRASQSIRTYLNWYQQKPGNAPKLLIYSASSLQGGVPSRFSGSGSGTDFTLTISSLQPEDFATYHCQQSYSTPPWTFGQGTKVEI
B11: BD56-064 (protein)
chain 1: EVYLVESGGGLVKPGGSLRLSCAASGFTFSHYGMNWVRQAPGKGLEWVSSISGGSSFIHYADSVRGRFTISRDNAKKSLYLHMNRLRAEDTAVYYCAKDLGSRDSSTWYDPGLNYDGMDVWGQGTTVTVS
chain 2: QSVLTQPPSASGTPGQRVTISCSGSSSNIGSSSVNWYQQLPGTAPKLLIYSDNRRPSGVPDRFSGSKSGTSASLAISGLQTGDEADYYCATWDDSLNGLWVFGGGTKLTVL
B12: BD56-066 (protein)
chain 1: EVQLVESGGGLVQPGRSLRLSCAASGFSFDDYAMHWVRQAPGKGLEWVSGVTWNSGTIGYADSVKGRFIISRDNAKNSLYLQMMSLRAEDTAFYFCAKDGSATKVLWFNPENYYFESWGQGTPVTVSS
chain 2: B6 chain 2 with S33Y, Q39H, A44T, P60R, A98V, W99Y, G103S, L107V

Assays:
Test in all cases: pseudovirus neutralization IC50; higher = weaker neutralization
[1] = target: SARS-CoV-2 Omicron BA.1 spike pseudovirus
Description: (§1)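 Single-round VSV luciferase pseudovirus mixed with antibody dilutions for 1 h and put on Huh-7 cells for about a day; IC50 from the dose curve.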

[2] = target: SARS-CoV-2 Omicron BA.2 spike pseudovirus
Description: as §1

[3] = target: SARS-CoV-2 Omicron BA.2.75 spike pseudovirus
Description: as §1

[4] = target: SARS-CoV-2 Omicron BA.5 spike pseudovirus
Description: as §1

[5] = target: SARS-CoV-2 Omicron BQ.1.1 spike pseudovirus
Description: as §1

[6] = target: SARS-CoV-2 Omicron XBB spike pseudovirus
Description: as §1

[7] = target: SARS-CoV-2 early D614G spike pseudovirus
Description: as §1

Row | Binder | pseudovirus neutralization IC50 [1] [µg/mL] | pseudovirus neutralization IC50 [2] [µg/mL] | pseudovirus neutralization IC50 [3] [µg/mL] | pseudovirus neutralization IC50 [4] [µg/mL] | pseudovirus neutralization IC50 [5] [µg/mL] | pseudovirus neutralization IC50 [6] [µg/mL] | pseudovirus neutralization IC50 [7] [µg/mL]
1 | B1 | 1.86 | 3.64 | 1.49 | 2.37 | > 10 | > 10 | 0.361
2 | B2 | 3.53 | > 10 | > 10 | 8.76 | > 10 | > 10 | 0.0367
3 | B3 | 0.0642 | 0.0411 | 0.0665 | > 10 | > 10 | 3.9 | 0.0231
4 | B4 | 2.15 | > 10 | > 10 | > 10 | > 10 | > 10 | 0.59
5 | B5 | > 10 | > 10 | > 10 | > 10 | > 10 | > 10 | 0.503
6 | B6 | > 10 | > 10 | > 10 | > 10 | > 10 | > 10 | > 10
7 | B7 | 0.0198 | 0.0161 | 0.0193 | 3.36 | > 10 | > 10 | 0.0127
8 | B8 | > 10 | > 10 | > 10 | > 10 | > 10 | > 10 | 4.57
9 | B9 | > 10 | > 10 | > 10 | > 10 | > 10 | > 10 | 0.58
10 | B10 | > 10 | > 10 | > 10 | > 10 | > 10 | > 10 | > 10
11 | B11 | 0.0968 | 0.0886 | 0.0336 | 0.0318 | > 10 | > 10 | 0.0355
12 | B12 | 0.0171 | 0.0113 | 0.0122 | 0.258 | 1.2 | > 10 | 0.0268
